Measured values from several laboratories, pooled; numbers as filed in NIAID ChemDB.

All rows: host cell toxicity; measure: CC50

Rows are shuffled and stem from different studies. Blank or dashed fields: not listed here. CCn: concentration that lowers growth or viability of the cells by n%.

SMILES	cells	method	value
Nc1nc(N)c2cc3c(ccc4ccccc43)nc2n1	ACHN	MTT	6.3 µM
Clc1ccc2c(NCCCNc3nccc(N4CCNCC4)n3)ccnc2c1	CRFK cells	MTS / tetrazolium / absorbance	74 µM
COC(=O)N[C@H](C(=O)NC(C)(C)CN[C@@H]1CNC[C@H]1N(CCC(C)C)S(=O)(=O)c1ccc(N)cc1)C(c1ccccc1)c1ccccc1	T lymphoid cells	microscopy	>10 µM
N#C/C(=C(\N)N1CC[N+]2(CC1)CC[N+]1(CCN(/C(N)=C(/C#N)[N+](=O)[O-])CC1)CC2)[N+](=O)[O-]	L929	-	>328.1 µg/mL
Cn1cc(C(=O)NCc2ccc(Cl)cc2)c(=O)c2cc(CN3CCOCC3)ccc21	10T1/2	-	>100 µM
C/C(=N\N=C(N)N)c1cc(NC(=O)CCCCCCCCC(=O)Nc2cc(/C(C)=N/N=C(N)N)cc(/C(C)=N/N=C(N)N)c2)cc(/C(C)=N/N=C(N)N)c1	PM1	MTT	>2 µM
O=[N+]([O-])c1cncnc1N1CC[N+]2(CC1)CC[N+]1(CCN(c3ncncc3[N+](=O)[O-])CC1)CC2	GMK	-	>369.4 µg/mL
OCC12C(c3ccccc3)C3(CO)C4N(Cc5ccccc5)C1C1(CO)C(C5C=CC=CC5)C4(CO)C3N(Cc3ccccc3)C21	EPG85-257DB	-	29.4 µM
CCN(CC)C(=O)N1CCN(c2ncnc(N3CC[N+]4(CC3)CC[N+]3(CCN(c5ncnc(N6CCN(C(=O)N(CC)CC)CC6)c5[N+](=O)[O-])CC3)CC4)c2[N+](=O)[O-])CC1	L929	-	>203.7 µg/mL
CCCc1cc(=O)oc2cc(OC(=O)CC)cc(O)c12	CV-1	-	90 µg/mL
CCCCNc1cccc2c(-c3ccnc(N4CCN(CCOC)CC4)n3)c(-c3ccc(F)cc3)nn12	VERO 76	-	58 µM
COC(=O)N[C@H](C(=O)NCCN[C@@H]1CNC[C@H]1N(C(C)C)S(=O)(=O)c1ccc(N)cc1)C(c1ccccc1)c1ccccc1	T lymphoid cells	microscopy	>10 µM
CCCCNc1nccc(-c2c(-c3ccc(F)cc3)nn3c(NC)cccc23)n1	VERO 76	-	40 µM
O=c1cc(CCl)nc2c3ncn([C@H]4C[C@H](O)[C@@H](COP(=O)(O)O)O4)c3ncn12	PBL	-	15 µM
Cc1cn(CC(=O)N[C@@H](C(=O)N(C)c2ccccc2)c2ccccc2)c(=O)[nH]c1=O	TZM-gfp	XTT	>50 µM
CCC(CN[C@@H]1CNC[C@H]1N(CCC(C)C)S(=O)(=O)c1ccc(N)cc1)NC(=O)[C@@H](NC(=O)OC)C(c1ccccc1)c1ccccc1	T lymphoid cells	microscopy	>10 µM
Nc1nccc(-c2c(-c3ccc(F)cc3)nn3c(NC4CCCC4)cccc23)n1	VERO 76	-	>40 µM
Cc1cn(CC(=O)N[C@@H](Cc2ccccc2)C(=O)N(C)c2cccc(Cl)c2)c(=O)[nH]c1=O	TZM-gfp	XTT	>50 µM
Nc1nc(N)c2cc3c(nc2n1)CCc1ccccc1-3	CCRF-CEM	MTT	1.7 µM
O=[N+]([O-])c1c(N2CC[N+]3(CC2)CC[N+]2(CCNCC2)CC3)ncnc1N1CC[N+]2(CC1)CC[N+]1(CCNCC1)CC2	GMK	-	>581 µg/mL
CC(O)Cn1cnc2cnc(N)nc21	PBL	-	>100 µM
CCC/C(=C/C(=O)OC)c1c(O)c2c(c3c1OC(C)(C)[C@H](O)[C@H]3O)O[C@H](C)[C@@H](C)[C@@H]2O	CV-1	neutral red	20 µg/mL
OC[C@H]1O[C@@H](n2ccc3c(-c4cc5ccccc5o4)nc(F)nc32)C(O)C1O	MRC-5 fibroblast	MTT	>150 µM
CS(=O)(=O)C1(c2ccc(C(=O)NC34CC(c5nc(-c6ccc(Cl)c(Cl)c6)cs5)(C3)C4)o2)CC1	Primary human hepatocytes	absorbance	16.69 µM
CN(C(=O)[C@H](Cc1ccccc1)NC(=O)CNC(=O)c1ccccc1)c1cccc(Br)c1	TZM-gfp	XTT	>50 µM
Fc1ccc(Nc2nccc(-c3c(-c4ccc(F)cc4)nn4c(NC5CCCC5)cccc34)n2)cc1	VERO 76	-	>40 µM
COc1ncnc2c1ncn2C(C)CO	PBL	-	>100 µM
CCCc1cc(=O)oc2c(C(=O)CC)c(O)c3c(c12)OC(C)(C)C=C3	CV-1	-	80 µg/mL
Cc1cn(CC(=O)N[C@@H](Cc2ccccc2)C(=O)N(C)c2ccccc2)c(=O)[nH]c1=O	TZM-gfp	XTT	>50 µM
CS(=O)(=O)C1(c2ncc(C(=O)NC34CC(c5nc(-c6ccc(Cl)cc6)cs5)(C3)C4)o2)CC1	Primary human hepatocytes	absorbance	81.63 µM
CC(CO)n1cnc2c(Cl)ncnc21	PBL	-	>100 µM
COC(=O)CCc1cccc(-c2cccc(-c3cc(=O)n(O)c4ncccc34)c2)c1	HeLa	-	<100 µM
CC(=O)OCC1=C[C@H]2[C@@H]3C(C)(C)[C@]3(OC(C)=O)[C@H](OC(=O)CCc3ccccc3)[C@@H](C)[C@]2(O)[C@@H]2C=C(C)C(=O)[C@@]2(O)C1	C8166	MTT	125 µM
COC(=O)N[C@H](C(=O)NCCN(C)[C@@H]1CNC[C@H]1N(CCC(C)C)S(=O)(=O)c1ccc(N)cc1)C(c1ccccc1)c1ccccc1	T lymphoid cells	microscopy	>10 µM
Cc1ccc(N(C)C(=O)[C@H](Cc2ccccc2)NC(=O)CC2NC(=O)NC2=O)cc1	TZM-gfp	XTT	>50 µM
Nc1ncc2ncn(CCCO)c2n1	U-937	-	>100 µM
O=c1cc(-c2cccc(N3CCN(C(c4ccccc4)c4ccc(Cl)cc4)CC3)c2)c2cccnc2n1O	HeLa	-	<100 µM
CC(=O)OCC1=C[C@H]2[C@@H]3C(C)(C)[C@]3(OC(C)=O)[C@H](OC(=O)CCCCn3ccc(=O)n(CCCOC(=O)[C@]45CCCC[C@H]4C4=CC[C@@H]6[C@@]7(C)CC[C@H](O)C(C)(C)[C@@H]7CC[C@@]6(C)[C@]4(C)CC5)c3=O)[C@@H](C)[C@]2(O)[C@@H]2C=C(C)C(=O)[C@@]2(O)C1	C8166	MTT	>200 µM
OC[C@H]1O[C@@H](n2ccc3c(-c4cccc5c4oc4ccccc45)nc(Cl)nc32)C(O)C1O	MRC-5 fibroblast	MTT	130.6 µM
CCCc1cc(=O)oc2cc(OC(=O)C(C)(C)C)c3c(c12)OC(C)(C)C=C3	CV-1	-	3 µg/mL
Cc1[nH]c2ccccc2c1CCC(=O)N[C@@H](Cc1ccccc1)C(=O)N(C)c1ccccc1	TZM-gfp	XTT	76 µM
CCCc1cc(=O)oc2cc(OS(=O)(=O)c3ccc(C)cc3)c3c(c12)OC(C)(C)C=C3	CV-1	-	20 µg/mL
NCc1cccc(-c2cncc(-c3cc(=O)n(O)c4ncccc34)c2)c1	HeLa	-	<100 µM
CCCCCCCC(=O)O[C@@H]1[C@@H](C)[C@@]2(O)[C@@H](C=C(CO)C[C@]3(O)C(=O)C(C)=C[C@@H]23)[C@@H]2C(C)(C)[C@]12OC(=O)CCCCCCC	C8166	MTT	22.7 µM
O=c1cc(NCCc2cccnc2)c2cccnc2n1O	HeLa	-	<100 µM
Clc1ccc2c(NCCCCCCCCNc3ccnc(Cl)n3)ccnc2c1	CRFK cells	MTS / tetrazolium / absorbance	8 µM
CC(CO)n1cnc2c(N)ncnc21	PBL	-	>100 µM
CS(=O)(=O)C1(c2nsc(C(=O)NC34CC(c5noc(-c6ccc(Cl)cc6)n5)(C3)C4)n2)CC1	Primary human hepatocytes	absorbance	65.54 µM
Cc1cn(CC(=O)N[C@@H](Cc2ccccc2)C(=O)N(C)c2cccc(Br)c2)c(=O)[nH]c1=O	TZM-gfp	XTT	>50 µM
CCOC(=O)/C=C/[C@H](CCC(N)=O)NC(=O)[C@H](Cc1ccccc1)NC(=O)[C@H](CC(C)C)NC(=O)OCc1ccccc1	H1-HELA	-	>50 µM
Cc1nc(N)nc2c1ccn2[C@@H]1O[C@H](CO)C(O)C1O	CEM-DNR leukemia cells	MTT	35.1 µM
CN(C(=O)[C@H](Cc1ccccc1)NC(=O)CC1NC(=O)NC1=O)c1cccc(F)c1	TZM-gfp	XTT	>50 µM
COC(=O)N[C@H](C(=O)NCCN[C@@H]1CNC[C@H]1N(CCC(C)C)S(=O)(=O)c1ccc(CO)cc1)C(c1ccccc1)c1ccccc1	T lymphoid cells	microscopy	>10 µM
CCCCNc1nccc(-c2c(-c3ccc(F)cc3)nn3c(NCCN4CCOCC4)cccc23)n1	VERO 76	-	12 µM
CCCCCCCCC(=O)O[C@@H]1[C@@H](C)[C@@]2(O)[C@@H](C=C(CO)C[C@@]3(O)C(=O)C(C)=C[C@@H]23)[C@@H]2C(C)(C)[C@]12OC(=O)CCCCCCCC	C8166	MTT	>200 µM
NCc1ccc(-c2cccc(-c3ccnc4c3c(O)cc(=O)n4O)c2)cc1	HeLa	-	<100 µM
COC(=O)N[C@H](C(=O)NCCN[C@@H]1CNC[C@H]1N(CC(C)C)S(=O)(=O)c1ccc(N)cc1)C(c1ccccc1)c1ccccc1	T lymphoid cells	microscopy	>10 µM
CCCCNc1nccc(-c2c(-c3ccc(F)cc3)nn3c(NC4CC4)cccc23)n1	VERO 76	-	>40 µM
Nc1nc(Cl)c2ncn(CCCO)c2n1	U-937	-	>100 µM
COC1=CCC(C2C3(CO)C4N(Cc5ccc(OC)cc5)C5C6(CO)C(c7ccc(OC)cc7)C4(CO)C3N(Cc3ccc(OC)cc3)C6C25CO)C=C1	EPG85-257P	-	23.8 µM

Repeating the final 8 entries:

SMILES,cells,method,value
COC(=O)N[C@H](C(=O)NCCN[C@@H]1CNC[C@H]1N(CCC(C)C)S(=O)(=O)c1ccc(CO)cc1)C(c1ccccc1)c1ccccc1,T lymphoid cells,microscopy,>10 µM
CCCCNc1nccc(-c2c(-c3ccc(F)cc3)nn3c(NCCN4CCOCC4)cccc23)n1,VERO 76,-,12 µM
CCCCCCCCC(=O)O[C@@H]1[C@@H](C)[C@@]2(O)[C@@H](C=C(CO)C[C@@]3(O)C(=O)C(C)=C[C@@H]23)[C@@H]2C(C)(C)[C@]12OC(=O)CCCCCCCC,C8166,MTT,>200 µM
NCc1ccc(-c2cccc(-c3ccnc4c3c(O)cc(=O)n4O)c2)cc1,HeLa,-,<100 µM
COC(=O)N[C@H](C(=O)NCCN[C@@H]1CNC[C@H]1N(CC(C)C)S(=O)(=O)c1ccc(N)cc1)C(c1ccccc1)c1ccccc1,T lymphoid cells,microscopy,>10 µM
CCCCNc1nccc(-c2c(-c3ccc(F)cc3)nn3c(NC4CC4)cccc23)n1,VERO 76,-,>40 µM
Nc1nc(Cl)c2ncn(CCCO)c2n1,U-937,-,>100 µM
COC1=CCC(C2C3(CO)C4N(Cc5ccc(OC)cc5)C5C6(CO)C(c7ccc(OC)cc7)C4(CO)C3N(Cc3ccc(OC)cc3)C6C25CO)C=C1,EPG85-257P,-,23.8 µM